Measurements taken from PMC5864091.
For at least one entry, the source does not settle the construct or the ends of the probe.

Tested on: CodY (Clostridium difficile JIR8094)
Assay: EMSA
Conditions: 10 mM GTP, 2 mM Ile/Leu/Val, SinR/SinR': 10 mM Tris-HCl pH 8.0, 0.1 mM DTT, 150 mM KCl, 0.5 mM EDTA, 0.1% Triton X-100, 12.5% glycerol (SinR+SinR' premix 30 min RT). CodY: 10 mM Tris pH 7.5, recombinant protein, protein details: 6His (pET16B)

| Sequence | binding result (shift at 400 nM CodY, label: 5'-32P (PNK, ORG721)) | binding result (positive control, label: 32P) |
| --- | --- | --- |
| TAAAATAGAAAATTTTTTTAATTTTCAAAATATATTCTACATATCTAATATGTAATTAC (double strand) [sin locus upstream, putative CodY site (ORG721/ORG722)] | binds | – |
| TAGTTATAACTTCAAAAAAGACTGAAAATTAAGAAAAAAGAAATATAAAT (double strand) [tcdR upstream CodY site (ORG719/ORG720)] | – | binds |
